Target: SARS-CoV-2 nsp14 MTase (Severe acute respiratory syndrome coronavirus 2, UniProt P0DTD1)
Assay type: biochemical
Conditions: enzymatic assay; after introduction of 5-ethynylpyrimidine C-7 substituent

Q: `Cc1cc(=O)oc2cc(NC(=O)[C@H]3O[C@@H](n4cc(C#Cc5cncnc5)c5c(N)ncnc54)[C@H](O)[C@@H]3O)ccc12` [18l] was tested. Which “fold enhancement in activity” value did it give?
A: Its value is 10 fold.

Q: For `Cc1cc(=O)[nH]c2cc(NC(=O)[C@H]3O[C@@H](n4cc(C#Cc5cncnc5)c5c(N)ncnc54)[C@H](O)[C@@H]3O)ccc12` [18n], which “fold enhancement in activity” value is on record?
A: Its value is 10 fold.
